The values that follow are results of earlier work, collected in publication PMC9227918 (Toxins, 2022).

The conditions of this series: postulated; cited from earlier work.

Turning to satratoxin G, the biotransformation result is reported as “fast biotransformation”.
